Tested on: P. aeruginosa
Conditions: 10,000 ppm thorium, defined medium

## thorium nitrate
  effect on growth: an extended lag period followed by reduction in growth
